Compound potency records, mixed from different reports. Data source: NIAID ChemDB in PubChem.

Common to all: growth or infection tests; organism: HIV-1; method: cytopathic effect / XTT; measure: fold resistance

Fold resistance has wild type as its base. Conditions beyond the fields shown may differ between rows.

| structure | cell line | strain | mutations | value |
|---|---|---|---|---|
| CC1=C(C(=O)Nc2ccc(Cl)c(C(=O)OC(C)C)c2)SCCO1 | CEM + CEM-SS | IIIB(OC-R(I)) | RT-L100I | >333 |
| Cc1cn([C@H]2C[C@H](N=[N+]=[N-])[C@@H](CO)O2)c(=O)[nH]c1=O | CEM + CEM-SS | NL4-3 | RT-V179D | 3 |
| Cc1occc1C(=S)Nc1ccc(Cl)c(/C=N/OC(C)(C)C)c1 | CEM + CEM-SS | NL4-3 (RT Y188C) | RT-Y188C | 5 |
| O=[N+]([O-])c1ccccc1S(=O)(=O)c1ccccc1 | CEM + CEM-SS | IIIB(A17(III)) | RT-K103N Y181C | 60 |
| Cc1ccnc2c1NC(=O)c1cccnc1N2C1CC1 | CEM + CEM-SS | NL4-3 | RT-K101E | 15 |
| CCCc1cc(=O)oc2c3c(c4c(c12)OC(C)(C)C=C4)O[C@@H](C)[C@H](C)[C@@H]3O | CEM + CEM-SS | UC10-resistant (RT Y181C K101E) | RT-Y181C K101E | 8.8 |
| Cc1cn([C@H]2C[C@H](N=[N+]=[N-])[C@@H](CO)O2)c(=O)[nH]c1=O | MT-2 | Site-directed mutant | RT-K65R Y115F | 1.4 |
| CCc1c(Sc2ccccn2)n(COCc2ccccc2)c(=O)[nH]c1=O | CEM + CEM-SS | IIIB(A17(III)) | RT-K103N Y181C | >333 |
| Cc1cn([C@H]2C[C@H](N=[N+]=[N-])[C@@H](CO)O2)c(=O)[nH]c1=O | CEM + CEM-SS | NL4-3 | RT-L74V | 10 |
| CCc1c(C(=O)c2cc(C)cc(C)c2)n(CC2CC=CC2)c(=O)[nH]c1=O | CEM + CEM-SS | NL4-3 | RT-Y181C | 4.5 |
| CCc1c(Sc2ccccn2)n(COCc2ccccc2)c(=O)[nH]c1=O | CEM + CEM-SS | NL4-3 | RT-L100I | 1.5 |
| C/C=C/CSc1cc(NC(=S)c2ccsc2C)ccc1Cl | CEM + CEM-SS | NL4-3 (RT V179D) | RT-V179D | 6 |
| Cc1c(Sc2ccccc2)n(COCCO)c(=O)[nH]c1=O | CEM + CEM-SS | IIIB | RT-V90I T139I P225S | 4 |
| CCCc1cc(=O)oc2c3c(c4c(c12)OC(C)(C)C=C4)O[C@H](C)[C@@H](C)[C@@H]3O | CEM + CEM-SS | IIIB(A17(III)) | RT-K103N Y181C | 1.5 |
| C[C@H](Cn1cnc2c(N)ncnc21)OCP(=O)(O)O | MT-2 | Site-directed mutant | RT-K65R H221Y | 3.6 |

For reference, 2 entries again:

structure,cell line,strain,mutations,value
CCCc1cc(=O)oc2c3c(c4c(c12)OC(C)(C)C=C4)O[C@H](C)[C@@H](C)[C@@H]3O,CEM + CEM-SS,IIIB(A17(III)),RT-K103N Y181C,1.5
Cc1ccnc2c1NC(=O)c1cccnc1N2C1CC1,CEM + CEM-SS,NL4-3,RT-K101E,15